Pooled drug test results. Numbers come from NIAID ChemDB, via PubChem.

Shared fields: toxicity to cultured cells; cells: H9; read-out: CC50

CCn is the concentration with n% toxicity to the cells. Lines come from different laboratories, so protocols vary.

SMILES	read by	result
CC1(C)CC[C@]2(C(=O)O)CC[C@]3(C)[C@H](CC[C@@H]4[C@@]5(C)CC[C@H](OC(=O)CC(C)(C)C(=O)O)C(C)(C)[C@@H]5CC[C@]43C)[C@@H]2C1	cell count	13.7 µg/mL
C#C[C@@]1(CO)C=C[C@H](n2cc(C)c(=O)[nH]c2=O)O1	cell count	>50 µM
COc1cc2c(c3oc(=O)c(COC(C)=O)c(C)c13)[C@@H](OC(=O)C13CCC(C)(C(=O)O1)C3(C)C)[C@@H](OC(=O)C13CCC(C)(C(=O)O1)C3(C)C)C(C)(C)O2	XTT	>33.88 µM
CC(C)(CC(=O)O)CC(=O)O[C@H]1CC[C@@]2(C)C(CC[C@]3(C)C2CC=C2C4CC(C)(C)CC[C@]4(C(=O)O)CC[C@]23C)C1(C)C	cell count	14.2 µg/mL
CCOC(=O)c1cc(C(=O)N2CCOCC2)n2ccc(C(=O)NCc3ccccn3)cc12	MTT	236.8 µM
O=S(=O)(Nc1cccc2cccnc12)c1ccc(Cl)cc1	ATP	>20 µM
CC1(C)CC[C@]2(C(=O)O)CC[C@]3(C)C(=CC[C@@H]4[C@@]5(C)CC[C@H](O)C(C)(C)[C@@H]5CC[C@]43C)[C@@H]2C1	cell count	21.8 µg/mL
Cc1c(CC#N)c(=O)oc2c3c(ccc12)OC(C)(C)[C@H](OC(=O)C12CCC(C)(C(=O)O1)C2(C)C)[C@@H]3OC(=O)C12CCC(C)(C(=O)O1)C2(C)C	XTT	>37.04 µM
CCOC(=O)c1cc(C(=O)c2ccccc2)n2ccc(C(=O)NCc3ccccc3)cc12	MTT	91.4 µM
CCOC(=O)c1cc(C(=O)c2ccccc2)n2ccc(C(=O)NCc3ccccc3)cc12	MTT	91.4 µM
COc1cc2c(c3oc(=O)c(CC#N)c(C)c13)[C@@H](OC(=O)C13CCC(C)(C(=O)O1)C3(C)C)[C@@H](OC(=O)C13CCC(C)(C(=O)O1)C3(C)C)C(C)(C)O2	XTT	>35.46 µM
Fc1ccc(OCCC(Cn2ccnc2)c2ccc(Cl)cc2Cl)cc1	WST / absorbance	60.1 µM
CCOC(=O)c1cc(C(=O)c2ccco2)n2ccc(C(=O)NCc3ccccn3)cc12	MTT	89.7 µM
Cc1cc(=O)oc2c3c(c(CN)cc12)OC(C)(C)[C@H](OC(=O)C12CCC(C)(C(=O)O1)C2(C)C)[C@@H]3OC(=O)C12CCC(C)(C(=O)O1)C2(C)C	XTT	>15 µM
CCOC(=O)c1cc(C(=O)c2cccc(Br)c2)n2ccc(C(=O)NCc3ccccn3)cc12	MTT	54 µM
N#Cc1cccc(S(=O)(=O)N(Cc2c(Cl)cccc2Cl)c2cccc(C(=O)NC3CCC3)c2)c1	absorbance	>33 µM
CCOC(=O)c1cc(C(=O)c2cccc(Br)c2)n2ccc(C(=O)NCc3ccccn3)cc12	MTT	54 µM
Cc1cn([C@H]2C[C@H](N=[N+]=[N-])[C@@H](CO)O2)c(=O)[nH]c1=O	XTT	1873 µM
CC(C)(CC(=O)O)CC(=O)O[C@H]1CC[C@]2(C)[C@H]3CC[C@@H]4[C@@H]5CC(C)(C)CC[C@]5(C(=O)O)CC[C@@]4(C)[C@]3(C)CC[C@H]2C1(C)C	cell count	8.3 µg/mL
CC1(C)Oc2ccc3cc(CN)c(=O)oc3c2[C@@H](OC(=O)C23CCC(C)(C(=O)O2)C3(C)C)[C@H]1OC(=O)C12CCC(C)(C(=O)O1)C2(C)C	XTT	>15.4 µM
CCOC(=O)c1cc(C(=O)c2cccs2)n2ccc(C(=O)NCc3ccccn3)cc12	MTT	53.4 µM
CC(C)(CC(=O)O)CC(=O)NC[C@]12CCC(C)(C)C[C@H]1C1=CC[C@@H]3[C@@]4(C)CC[C@H](OC(=O)CC(C)(C)CC(=O)O)C(C)(C)[C@@H]4CC[C@@]3(C)[C@]1(C)CC2	cell count	21.2 µg/mL
O=S(=O)(Nc1cccc2cccnc12)c1ccc(F)cc1	ATP	5.1 µM
CCOC(=O)c1cc(C(=O)c2ccccc2)n2ccc(C(=O)NCc3ccco3)cc12	MTT	98.2 µM
CCOC(=O)c1cc(C(=O)c2ccc(F)cc2)n2ccc(C(=O)NCc3ccccn3)cc12	MTT	81.6 µM
O=S(=O)(Nc1cccc2cccnc12)c1ccccc1	ATP	>20 µM
CC1(C)CC[C@]2(C(=O)O)CC[C@]3(C)[C@H](CC[C@@H]4[C@@]5(C)CC[C@H](OC(=O)CCCC(=O)O)C(C)(C)[C@@H]5CC[C@]43C)[C@@H]2C1	cell count	12.9 µg/mL
Cc1cc(=O)oc2c3c(c(CBr)cc12)OC(C)(C)[C@H](OC(=O)C12CCC(C)(C(=O)O1)C2(C)C)[C@@H]3OC(=O)C12CCC(C)(C(=O)O1)C2(C)C	XTT	>13.7 µM
CCOC(=O)c1cc(C(=O)NCc2cccnc2)n2ccc(C(=O)c3ccco3)cc12	MTT	233.5 µM
COP(=O)(c1cc(C)cc(CCC#N)c1)c1c(C(N)=O)[nH]c2ccc(Cl)cc12	MTS	31.3 µM
CC(CC(=O)O)CC(=O)O[C@H]1CC[C@]2(C)[C@H]3CC[C@@H]4[C@@H]5CC(C)(C)CC[C@]5(C(=O)O)CC[C@@]4(C)[C@]3(C)CC[C@H]2C1(C)C	cell count	12.3 µg/mL
O=S(=O)(Nc1cccc2cccnc12)c1ccc(F)cc1F	ATP	5.1 µM
Cc1cn([C@H]2C[C@H](N=[N+]=[N-])[C@@H](CO)O2)c(=O)[nH]c1=O	cell count	500 µg/mL

The last 2 rows once more:

SMILES | read by | result
O=S(=O)(Nc1cccc2cccnc12)c1ccc(F)cc1F | ATP | 5.1 µM
Cc1cn([C@H]2C[C@H](N=[N+]=[N-])[C@@H](CO)O2)c(=O)[nH]c1=O | cell count | 500 µg/mL